Data taken from paper doi:10.1101/2024.05.05.592584 (bioRxiv, 2024).

B1: C1520 IgG (antibody, V domains shown)
VH: EVQLVESGGGLVQPGGSLRLACVASGFTFSIYEMNWVRQAPGKGLEWVSYITTSGHARYNADSVKGRFTISRDNSKNSFYLQMNSLRAEDTAIYYCARPQYHYYDTSTYHSYGFDIWGQGTMVTVSS
VL: QLVLTQSPSASASLGASVNLTCTLSSGHNSYAIAWHQQQPEKGPRYLMSLNSDGSHTKGDGIPDRFSGSSSGAERFLTISSLQSEDEADYYCQTWDTGIRVFGGGTRLTVL
B2: C1717 IgG (antibody, V domains shown)
VH: QVQLVQSGAEVKKPGSSVKVSCKTSGGTFNSFAINWVRQAPGQGPEWMGRVIPVLEIANYAQKFQGRITITADKSTSTAYMELSSLTSEDTAIYYCARHHIAVAQPYFDYWGQGTLVTVSS
VL: not shown

Target: RaTG13 NTD protein (Bat coronavirus RaTG13, UniProt A0ABF7PLN6)
Assay: ELISA
Details: both partners purified

| Binder | binding result |
| --- | --- |
| B1 | binds |
| B2 | binds |
